Where two headings read alike, the source gives them in different places.
Columns and labels:
Eis_Mtb = Eis_Mtb (Mycobacterium tuberculosis, UniProt P9WFK7); assay: Inhibition of Eis-catalyzed KAN acetylation by purified enzyme (IC50, UV-Vis assay); type: biochemical; settings: Example 1, Table 1
AAC(2′)-Ic = AAC(2′)-Ic (Mycobacterium tuberculosis, UniProt P9WQG9)
AAC(3)-IV = assay: Selectivity: KAN acetylation by AAC(3)-IV
AAC(6′)-Ie/APH(2″)-Ia = AAC(6′)-Ie/APH(2″)-Ia (Staphylococcus aureus, UniProt P0A0C1); assay: Selectivity: KAN acetylation by AAC(6′)-Ie/APH(2″)-Ia
[1] = concentrations as high as 200 μM

The chains behind the UniProt entries cited, without tags or fusion partners. Residues count along the entry.
UniProt P9WFK7, 2-402 limits assumed: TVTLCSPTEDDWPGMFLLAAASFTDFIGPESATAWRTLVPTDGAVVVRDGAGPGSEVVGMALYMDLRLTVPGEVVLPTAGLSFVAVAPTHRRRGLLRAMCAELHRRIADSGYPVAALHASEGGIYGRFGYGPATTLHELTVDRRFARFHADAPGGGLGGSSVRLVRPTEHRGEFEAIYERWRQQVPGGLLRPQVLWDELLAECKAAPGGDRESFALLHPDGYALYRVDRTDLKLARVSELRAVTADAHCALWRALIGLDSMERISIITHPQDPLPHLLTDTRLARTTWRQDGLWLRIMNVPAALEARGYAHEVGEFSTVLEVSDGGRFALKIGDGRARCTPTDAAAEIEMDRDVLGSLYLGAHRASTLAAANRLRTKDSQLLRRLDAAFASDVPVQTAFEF
UniProt P9WQG9, whole entry: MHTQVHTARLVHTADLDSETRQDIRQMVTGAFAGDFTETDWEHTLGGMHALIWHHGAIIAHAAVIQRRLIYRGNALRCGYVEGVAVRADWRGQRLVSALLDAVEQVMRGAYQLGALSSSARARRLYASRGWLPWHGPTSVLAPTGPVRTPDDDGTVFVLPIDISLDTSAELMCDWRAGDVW
UniProt P0A0C1, whole entry: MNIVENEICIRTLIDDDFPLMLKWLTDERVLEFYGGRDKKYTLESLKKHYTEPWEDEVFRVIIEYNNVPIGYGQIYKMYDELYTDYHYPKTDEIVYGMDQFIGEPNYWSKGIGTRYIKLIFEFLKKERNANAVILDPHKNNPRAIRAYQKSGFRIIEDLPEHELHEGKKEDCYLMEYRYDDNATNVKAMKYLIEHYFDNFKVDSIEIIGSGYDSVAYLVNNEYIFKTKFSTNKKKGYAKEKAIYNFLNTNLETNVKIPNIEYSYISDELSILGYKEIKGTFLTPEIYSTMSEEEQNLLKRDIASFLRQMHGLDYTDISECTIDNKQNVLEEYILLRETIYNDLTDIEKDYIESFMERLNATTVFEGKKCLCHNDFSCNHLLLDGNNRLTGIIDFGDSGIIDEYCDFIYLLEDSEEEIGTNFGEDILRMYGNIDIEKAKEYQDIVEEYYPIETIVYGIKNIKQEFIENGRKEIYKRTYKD

With `C=CCNC(=O)CNC1=NS(=O)(=O)C(c2ccc(C)c(C)c2)=C1C` the “H37Rv MICKAN” value (Mtb H37Rv; KAN MIC for H37Rv Mtb in the presence of compound at the specified concentration, Example 4) was 0.625 µg/mL and the “K204 MICKAN” value (Mtb K204; KAN MIC for K204 Mtb in the presence of compound at the specified concentration, Example 4) was 10 µg/mL.
`CC(C)(C)C(=O)CN1C(=O)C2(OCCO2)c2ccccc21` was tested, and the “H37Rv MICKAN” value (Mtb H37Rv; activity of KAN against Mtb H37Rv with compound at concentration tested (100x IC50 or 100 μM), Example 1, two experiments) was ≤1.25 µg/mL, the IC50 (Eis_Mtb) was > 200 µM and the “K204 MICKAN” value (Mtb K204; activity of KAN against Mtb K204 with compound at concentration tested, Example 1, first of the two experiments printed) was ≥10, 10 μg/mL. For the same compound, the “K204 MICKAN” value (Mtb K204; activity of KAN against Mtb K204 with compound at concentration tested, Example 1, second of the two experiments printed) was ≥10, 10 μg/mL.
With `CC1=C(c2ccc(Cl)cc2)S(=O)(=O)N=C1N1CCC(N2CCCCC2)CC1` the “inhibition of KAN acetylation by AAC(2′)-Ic (in words)” value (AAC(2′)-Ic) was “no inhibition by either compound was observed”, the “% activity” value (AAC(2′)-Ic; 200 µM) was 100% and the “% activity” value (AAC(3)-IV; AAC(3)-IV activity at 200 μM inhibitor relative to that without inhibitor) was 100%. For the same compound, the “inhibition of KAN acetylation by AAC(3)-IV (in words)” value (AAC(3)-IV; [1]) was “no inhibition by either compound was observed”, the “% activity” value (AAC(6′)-Ie/APH(2″)-Ia; acetylation activity of AAC(6′)-Ie/APH(2″)-Ia at 200 μM inhibitor relative to that without inhibitor) was 75% and the “inhibition of KAN acetylation by AAC(6′)-Ie/APH(2″)-Ia (in words)” value (AAC(6′)-Ie/APH(2″)-Ia; [1]) was “no inhibition by either compound was observed”.

— patent US10253035B2 (priority 2016, dated 2019)
